Source: ChEMBL document CHEMBL1158369, “Hansch analysis of substituted benzoic acid benzylidene/furan-2-yl-methylene hydrazides as antimicrobial agents” (Eur J Med Chem, 2009)

Assays:
Format in all cases: functional
[1] = test system: Bacillus subtilis; assay: Antibacterial activity against Bacillus subtilis after 24 hrs by tube dilution method
Summary of the method: (§1)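 Twofold serial dilutions of test and standard compounds in double strength nutrient broth (I.P.); tubes incubated at 37 °C for 24 h. Growth judged visually; MIC taken as lowest concentration with no visible turbidity.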

[2] = test system: Escherichia coli; assay: Antibacterial activity against Escherichia coli after 24 hrs by tube dilution method; summary of the method: as §1
[3] = test system: Staphylococcus aureus; assay: Antibacterial activity against Staphylococcus aureus after 24 hrs by tube dilution method; summary of the method: as §1
[4] = test system: Candida albicans; assay: Antifungal activity against Candida albicans after 48 hrs by tube dilution method
Summary of the method: (§2)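 Twofold serial dilutions of test and standard compounds in Sabouraud dextrose broth (I.P.); C. albicans incubated 37 °C for 48 h, A. niger 25 °C for 7 d. Growth read visually; MIC is lowest concentration without visible growth.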

[5] = test system: Aspergillus niger; assay: Antifungal activity against Aspergillus niger after 7 days by tube dilution method; summary of the method: as §2

O=C(N/N=C/c1cccc([N+](=O)[O-])c1)c1cc([N+](=O)[O-])cc([N+](=O)[O-])c1
-logMIC [1]: 2.48
-logMIC [2]: 2.63
-logMIC [3]: 2.34
-logMIC [4]: 1.76
-logMIC [5]: 1.76
